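Growth of Mycobacterium tuberculosis over 3 days (7H9 medium with glucose and tyloxapol); the read-out is not stated. Compounds at 500 µM. Higher reads as more growth inhibition (inferred: compounds with an IC50 in retests scored well above the rest). About 18,000 compounds were tested under these conditions; 7.9% (about 1,400) showed 50% or more at least once.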

The filed quantity is “Percent Effect” (%).
How 0% and 100% were set is not recorded. Most values in the screen are low, and negative values occur.
The entries come from a sample that favours strong results.

compound	Percent Effect
COc1ccnc(CSc2n[nH]c(=O)n2C)c1OC	-6.21
CCC(C)(C)NC(=O)C1CCCN(C(=O)C(C)C)C1 (stereo unspecified)	9.647
Cc1cccc(S(=O)(=O)NCCN)c1Br	24.98
CN1CCN(C(=O)NCc2ccccc2)CC1	4.649
CN(CC1CC(O)C1)C(=O)c1ccc2ccccc2n1 (stereo unspecified)	19.04
CC(C)CN1C(=O)C(N)c2ccccc21 (stereo unspecified)	65.8
Cc1cc(NC(=O)c2cccc(N(C)C)c2)c[nH]c1=O	-7.184
O=C(CCc1cc(F)ccc1Br)N1CC[S+]([O-])CC1	40.63
COCCNCc1cc(Cl)ccc1OCC(N)=O	14.09
COc1ccc(-c2noc(C3(O)CCCC3)n2)cn1	64.67
CC(=O)CN1CCCc2ccccc2C1	38.11
c1cnn(CCN2CCCC2Cn2cccn2)c1 (stereo unspecified)	4.229
Cc1cc(NC(=O)Cn2cnc(C#N)n2)no1	15.22
CC(N)c1ccccc1NS(C)(=O)=O (stereo unspecified)	3.139
Cc1cnn(CCNCc2nccn2C)c1	64.85
COc1ccc(CN(C)S(C)(=O)=O)cc1C	40.29
O=C(NCc1ccncc1)C1COCCO1 (stereo unspecified)	-3.455
COc1cc2c(cc1OC)CN(C(=O)CCN)CC2	14.11
CNC(=O)c1cccc(NCc2nc(C)cs2)n1	-11.86
NCc1cccc(C(N)=O)n1	7.574
CCCn1ccnc1CNC(=O)[C@H]1CCC[C@@H](O)C1	-15.11
Cc1nonc1OCCNC(=O)C1CCCCCN1C (stereo unspecified)	9.307
CCN1CCCC1CNC(=O)NCCN1CCOCC1 (stereo unspecified)	-3.233
CC1=CC(=O)N(Cc2ccccc2)C1=O	102.6
O=C(Nc1cc(F)cc(F)c1)c1ccncc1	53.47
COc1ccc(Cl)cc1C(=O)N1C[C@H](O)[C@@H](N(C)C)C1	-6.273
CC(CO)(CO)NC(=O)c1ccc(-c2ccccc2)o1	3.224
COc1cccc(NC(=O)CN2CCC(O)CC2)c1	4.331
CCS(=O)(=O)CCn1nnc(-c2ccc(Br)cc2)n1	49.11
CC(Oc1ccc(S(C)(=O)=O)cc1)C(=O)N(C)C (stereo unspecified)	-6.093
CCCn1nnnc1NCc1ccc(F)cc1	76.53
CN(C)S(=O)(=O)NC1(C)CCc2ccccc2C1 (stereo unspecified)	-2.419
NCC(CO)Cc1cccc(F)c1 (stereo unspecified)	19.88
Nc1ccc(C(=O)N2CCC(n3cnnc3)CC2)cn1	13.76
COc1cc(F)cc(CNC(=O)Nc2ncco2)c1	-4.308
CCNC1CCOC(C)(C)C1 (stereo unspecified)	-7.017
O=C(CCc1cc(Cl)no1)N1CC[C@H]2CNC[C@H]21	-4.284
COCCn1ccnc1CN(C)Cc1nnc(C)o1	4.742
CC(C)c1cc(C(=O)N2CCSCC2)nc2ncnn12	-11.31
CCNC(=O)N1CCCN(Cc2ccsc2)CC1	21.75
NCc1ccc(OC2CCCCC2)nc1	52.36
CC(C)Cc1cc(C(=O)N(C)Cc2cnccn2)on1	58.48
CN(CCCS(C)(=O)=O)Cc1cscn1	-7.711
Cn1ccc2ccc(NS(=O)(=O)C3CC3)cc2c1=O	-9.035
CN(Cc1cccs1)C(=O)CCCNC(=O)C(C)(C)C	45.37
Cn1ccnc1CNC1CC1	3.794
O=C(NCC1CCN(C2CC2)C1)c1ccccn1 (stereo unspecified)	45.57
CCc1ccsc1C(=O)NC(C)c1ncon1 (stereo unspecified)	23.61
c1cc(NCC2CCCO2)ccn1 (stereo unspecified)	9.804
COc1cccc(OCCN)c1	9.725
Cc1ccc(C(C)NC(=O)Nc2ccc(=O)n(C)c2)o1 (stereo unspecified)	6.461
c1cc(-c2nnc[nH]2)ccn1	-12.45
Cc1cc(N2CCCCC2)nc(CO)n1	14.69
COc1cc(Br)c(CN(C)CC(=O)N(C)C)c(OC)c1	7.061
CCOc1ncc(C(=O)N(C)C)cc1Cl	17.36
CCCNC(=O)c1ccccc1NS(=O)(=O)CC	4.52
CN1CCC(N2CCN(C)c3ccccc3C2)C1=O (stereo unspecified)	25.6
COc1cccc(CC(=O)N2CCC(N)CC2)c1	23.75

3 of the entries, repeated:

| compound | Percent Effect |
|---|---|
| `CNC(=O)c1cccc(NCc2nc(C)cs2)n1` | -11.86 |
| `CCCn1nnnc1NCc1ccc(F)cc1` | 76.53 |
| `CC(C)Cc1cc(C(=O)N(C)Cc2cnccn2)on1` | 58.48 |

From ChEMBL document CHEMBL3988442, “University of Dundee, Small-Polar-MMV Screening Library” (2021).